Measured values: US8222257B2, “Phosphono-pent-2-en-1-yl nucleosides and analogs” (The Regents of the University of California, priority 2005, dated 2012)

What was measured:
[1] = test system: HBV N236T (Adefovir dipivoxil)

Structure (SMILES) | activity against 3TC-resistant HBV M204I, in words (HBV M204I (3TC)) | activity against adefovir-resistant HBV N236T, in words [1] | activity against 3TC-resistant HBV M204V, in words (HBV M204V (3TC)) | activity against 3TC-resistant HBV L180M, in words (HBV L180M (3TC)) | activity against 3TC-resistant HBV double mutant L180M/M204V, in words (HBV L180M/M204V (3TC))
CCCCCCCCCCCCCCCCOCCCOP(=O)(O)CC/C=C\Cn1cnc2c(N)ncnc21 [HDP-PPen-A] | fully active | fully active | fully active | fully active | fully active
CCCCCCCCCCCCCCCCOCCCOP(=O)(O)CC/C=C\Cn1cnc2c(=O)[nH]c(N)nc21 [HDP-PPen-G, (Z)-3-(hexadecyloxy)propyl hydrogen 5-(2-amino-6-oxo-1,6-dihydropurin-9-yl)pent-3-enylphosphonate] | active | fully active | active | – | –
